Laboratory results taken from PMC6753678, “Fueling Open Innovation for Malaria Transmission-Blocking Drugs: Hundreds of Molecules Targeting Early Parasite Mosquito Stages” (Frontiers in Microbiology, 2019).

System: P. falciparum late stage (stages IV-V) gametocytes
Assay: P. falciparum late stage gametocyte ATP depletion assay (Pf GC-ATP)
[1] = unified cytotox / Pf GC-ATP IC50, red: <10-fold selectivity, green: >10-fold
[2] = unified cytotox / Pf GC-ATP IC50, <10-fold selectivity red, >10-fold green
[3] = unified cytotox / IC50, <10-fold red, >10-fold green

Row | Structure (SMILES) | Assay tox ratio Pf GC-ATP [1] | also measured
1 | CC(C)CNCc1ccc(-c2ccc(CN(CCCN3CCN(C)CC3)C(=O)CCC3CCCC3)cc2)cc1.O=C(O)C(F)(F)F [TCMDC-140559] | 9.98 | –
2 | CC(C)CNCc1cccc(-c2cccc(CN(CCCN3CCN(C)CC3)C(=O)NC3CCCCC3)c2)c1.O=C(O)C(F)(F)F [TCMDC-140633] | 9.43 | –
3 | COc1ccc2nc(-c3cccc(C)n3)nc(Nc3ccncc3)c2c1 [TCMDC-134670] | 9.96 | –
4 | Nc1ncc(-c2ccc3nccc(-c4ccncc4)c3c2)cc1S(=O)(=O)N1CCOCC1 [TCMDC-134180] | 3.62 | –
5 | CC(CCCCC(=O)Nc1ccc(CC(C)NCCc2cccc(Cl)c2)cc1)NCCc1cccc(Cl)c1 (stereo not drawn) [TCMDC-139799] | 3.98 | –
6 | COc1ccc(-c2cnn3ccc(Nc4cc(OC)c(OC)c(OC)c4)nc23)cc1OC [TCMDC-134383] | 7.98 | –
7 | CC(C)CC(=O)N(Cc1ccc(-c2ccc(CNC3Cc4ccccc4C3)cc2)cc1)C1CCNCC1.O=C(O)C(F)(F)F [TCMDC-141449] | 9.79 | –
8 | CC(CCCC(=O)Nc1ccc(CC(C)NCCc2cccc(Cl)c2)cc1)NCCc1cccc(Cl)c1 (stereo not drawn) [TCMDC-139798] | 5.52 | –
9 | CC(C)CNCc1cccc(-c2cccc(CN(CCCN3CCN(C)CC3)C(=O)CCC3CCCC3)c2)c1.O=C(O)C(F)(F)F [TCMDC-140554] | 7.58 | –
10 | Cc1ccc(C)c(NC(=O)CC2C(=O)N(c3ccccc3)C(=S)N2Cc2ccco2)c1 (stereo not drawn) [TCMDC-124000] | – | Assay tox ratio Pf GC-ATP [2]: 19.23
11 | CN(C)CCCNc1nccc(N(C)c2ccc(NC(=O)Nc3cc(C(F)(F)F)ccc3F)cc2)n1.O=C(O)C(F)(F)F [TCMDC-141633] | 17.36 | –
12 | CCc1c(CCNCCc2cccc(CCNCCc3ccc(OC)c(OC)c3CC)c2)ccc(OC)c1OC.Cl [TCMDC-132056] | 7.47 | –
13 | CCN(CC)CCOc1ccc(C(O)(C#CC(O)(c2ccccc2)c2ccc(OCCN(CC)CC)cc2)c2ccccc2)cc1 (stereo not drawn) [TCMDC-137197] | 5.34 | –
14 | O=C(O)C(F)(F)F.O=C(c1cccs1)N(Cc1cccc(-c2ccc(CNC3CCCC3)cc2)c1)C1CCN(Cc2ccccc2)CC1 [TCMDC-140567] | 8.40 | –
15 | CCN(CC)CCCOC(=O)c1ccc2c(c1)-c1ccc(C(=O)OCCCN(CC)CC)c3cccc-2c13.Cl [TCMDC-125491] | 139.53 | –
16 | Cc1cccc2nc(-c3ccc(-c4ccc(CN5CCC(CCN6CCCCC6)CC5)cc4)cc3)[nH]c12.O=C(O)C(F)(F)F [TCMDC-133929] | 13.88 | –
17 | COC(=O)c1sc(-c2ccc(Cl)cc2)cc1N(CCCN1CCC(N2CCCCC2)CC1)S(=O)(=O)c1ccc(C)cc1 [TCMDC-135561] | 1.30 | –
18 | CCOc1ccc(-c2nonc2NC(=O)c2cccc(Cl)c2)cc1OCC [TCMDC-125200] | – | Assay tox ratio Pf GC-ATP [3]: 23.21
19 | CCN(CC)CCN(Cc1ccc(-c2ccc(C(F)(F)F)cc2)cc1)C(=O)c1ccc(-c2ccc(NC(=O)OC)cc2C)cc1 [TCMDC-141558] | 1.46 | –
20 | Fc1ccc(N(c2nc(-c3cc(F)cc(C(F)(F)F)c3)cs2)C2CCNCC2)cc1.O=C(O)C(F)(F)F [TCMDC-136656] | 2.02 | –
21 | Cc1cccc2nc(-c3cccc(-c4cccc(CNCCN5CCNCC5)c4)c3)[nH]c12.O=C(O)C(F)(F)F [TCMDC-132873] | 15.62 | –
22 | CCc1ccc(CN2CCC(CNC(=O)c3cc(-c4cccc(F)c4)cs3)C2)cc1.O=C(O)C(F)(F)F (stereo not drawn) [TCMDC-134432] | 5.75 | –

Row | Structure (SMILES) | Assay tox ratio Pf GC-ATP [1] | also measured
23 | SC(=Nc1ccc2c(c1)OCCO2)NN=Cc1ccccn1 [TCMDC-132009] | 3.95 | –
24 | CN(CCCNCc1cccc2ccccc12)CCCNCc1cccc2ccccc12.Cl [TCMDC-137905] | 24.87 | –
25 | COc1ccc2nc3cc(Cl)ccc3c(NCCCCNc3c4ccc(Cl)cc4nc4ccc(OC)cc34)c2c1 [TCMDC-138218] | 72.35 | –
26 | CN1CCC(N(Cc2ccc(-c3ccc(Cl)cc3)cc2)C(=O)Cn2c(CCc3cccc(F)c3F)cc(=O)c3ccccc32)CC1.O=C(O)C(O)C(O)C(=O)O [TCMDC-141357] | 1.96 | –
27 | Br.c1cc(C2=NC3CCCCC3N2)ccc1OCCCCCOc1ccc(C2=NC3CCCCC3N2)cc1 (stereo not drawn) [TCMDC-137802] | 13.36 | –
28 | CN1CCC(C(=O)N(Cc2ccc(-c3ccc(CNCCc4ccccc4)cn3)cc2)C2CCN(Cc3ccccc3)CC2)CC1.O=C(O)C(F)(F)F [TCMDC-141552] | 10.34 | –
29 | COc1cccc(NC(=O)[C@H](C(C)C)n2c(=O)[nH]c3ccccc3c2=O)c1 [TCMDC-125133] | – | Assay tox ratio Pf GC-ATP [3]: 186.05
30 | COc1cccc(CC(=O)N2CCC(n3c(C)nc4ccc(C)cc43)CC2)c1 [TCMDC-124791] | – | Assay tox ratio Pf GC-ATP [3]: 212.77
31 | CC(C)CCNC(=N)Nc1ccc(OCCCCCOc2ccc(NC(=N)NCCC(C)C)cc2)cc1 [TCMDC-137614] | 49.34 | –
32 | CCN(CC)/C(=N/C(=N)Nc1ccc(Cl)cc1)NCCCCCCCCN/C(=N\C(=N)Nc1ccc(Cl)cc1)N(CC)CC [TCMDC-131812] | 24.27 | –
33 | CC(=NNC(=S)NCCc1ccccn1)c1ccccn1 [TCMDC-137895] | 16.72 | –
34 | Nc1cc(C=Cc2ccc([N+](=O)[O-])o2)nc2ccccc12 [TCMDC-142295] | 58.50 | –
35 | CCN(CC)/C(=N/C(=N)Nc1ccc(Cl)c(Cl)c1)NCCCCCCN/C(=N\C(=N)Nc1ccc(Cl)c(Cl)c1)N(CC)CC [TCMDC-131808] | 7.28 | –
36 | O=[N+]([O-])c1ccc(C=NNc2nc(Nc3ccccc3)nc(Nc3ccccc3)n2)o1 [TCMDC-125802] | 11.35 | –
37 | Cc1ccc(-n2nc(-c3ccccc3)c3cc(C(=O)NCCN)sc32)cc1 [TCMDC-124776] | – | Assay tox ratio Pf GC-ATP [2]: 7.05
38 | CCc1cc(COc2ccc(CNCCC(C)C)cc2I)c(OCc2ccccc2)c(COc2ccc(CNCCC(C)C)cc2I)c1.Cl [TCMDC-137255] | 5.71 | –
39 | O=C(Nc1ccc(Cl)c(Cl)c1)Nc1ccccc1N1CCNCC1.O=C(O)C(F)(F)F [TCMDC-133727] | 1.51 | –
40 | COc1cc2ccccc2c(OC)c1CNCCCCCCNCc1c(OC)cc2ccccc2c1OC.CS(=O)(=O)O [TCMDC-137843] | 13.32 | –
41 | Cl.Ic1cc(CNC2CCCCC2)ccc1OCc1cccc(COc2ccc(CNC3CCCCC3)cc2I)c1 [TCMDC-137261] | 75.00 | –
42 | COc1ccccc1CCNc1nc(C)cc(N[C@@H](Cc2ccccc2)C(=O)NCc2cccc(F)c2)n1.O=C(O)C(F)(F)F [TCMDC-134893] | 1.19 | –
43 | COc1ccc(C[C@H]2NC[C@H](O)[C@H]2OC(C)=O)cc1 [TCMDC-125504] | – | Assay tox ratio Pf GC-ATP [3]: 7.16
44 | O=C(O)C(F)(F)F.c1cc(CN2CCC(CCN3CCCCC3)CC2)cc(-c2cccc(-c3nc4ccccc4[nH]3)c2)c1 [TCMDC-133920] | 44.66 | –

Row | Structure (SMILES) | Assay tox ratio Pf GC-ATP [1] | also measured
45 | O=C(Nc1ccc2c(c1)CCCN2S(=O)(=O)c1cccs1)c1cc([N+](=O)[O-])ccc1Cl [TCMDC-125153] | 9.39 | –
46 | Cl.NCCCOc1cnc(-c2ccccc2)c2nc(-c3nonc3N)n(CCc3ccccc3)c12 [TCMDC-136216] | 4.01 | –
47 | Cl.c1ccc2c(CNCCCN3CCN(CCCNCc4c5ccccc5cc5ccccc45)CC3)c3ccccc3cc2c1 [TCMDC-137909] | 59.81 | –
48 | CC(C)c1ccc(NC(=S)NN=Cc2ccccn2)cc1 [TCMDC-125520] | 1306.12 | –
49 | CC(C)CNCc1cccc(-c2cccc(CN(CCN(C)C)C(=O)Nc3ccccc3)c2)c1.O=C(O)C(F)(F)F [TCMDC-140592] | 23.91 | –
50 | Cc1cc(Nc2ccncc2)n2nc(C)c(-c3ccccc3Cl)c2n1 [TCMDC-124918] | 12.86 | –
51 | Cc1[nH]c2ccccc2c1C(=O)C(C)Sc1n[nH]c(-c2ccccc2Br)n1 (stereo not drawn) [TCMDC-125114] | – | Assay tox ratio Pf GC-ATP [3]: 111.43
52 | COc1cc(NC(=O)c2sc(-c3ccc(Cl)cc3)cc2NC(=O)c2ccncc2)ccc1OCCN1CCCC1 [TCMDC-135398] | 21.53 | –
53 | C[C@H]1CN(Cc2cccc(-c3cc(CNC(=O)c4cccc(CC5CCN(C)CC5)c4)ccc3F)c2)CCN1C [TCMDC-136349] | 8.20 | –
54 | CC(C)CNCc1ccc(-c2cccc(CN(CCN(C)C)C(=O)CCC3CCCC3)c2)cc1.O=C(O)C(F)(F)F [TCMDC-140553] | 10.19 | –
55 | Nc1c2ccccc2nc2ccc(-c3ccccc3)cc12 [TCMDC-132030] | 6.80 | –
56 | O=C(Nc1ccc(F)c(C(F)(F)F)c1)NC1CCN(CCCCCNC(=O)C2CC2c2ccc(Cl)c(Cl)c2)CC1 (stereo not drawn) [TCMDC-136259] | 1.47 | –
57 | Fc1ccc2[nH]c(-c3cccc(-c4ccc(CNCCN5CCNCC5)cc4)c3)nc2c1.O=C(O)C(F)(F)F [TCMDC-132863] | 16.62 | –
58 | Nc1cc(/C=C/c2ccc([N+](=O)[O-])s2)nc2ccccc12 [TCMDC-142296] | 12.77 | –
59 | O=C(Nc1cccc(Oc2ccccc2)c1)N[C@H]1CCN(Cc2ccc(OCCCN3CCCCC3)cc2)C1 [TCMDC-141785] | 3.12 | –
60 | COc1cc2c(c(Cl)c1OC)CCN(C(=O)C(F)(F)F)CC2c1ccccc1 (stereo not drawn) [TCMDC-132071] | 12.82 | –
61 | COc1cc(CCNC(=N)/C=C/c2ccc(Cl)cc2)ccc1Cl.Cl [TCMDC-137457] | 50.00 | –
62 | N=C(N)Nc1nc(-c2ccc(NC(=O)Nc3cccc(-c4csc(NC(=N)N)n4)c3)cc2)cs1 [TCMDC-139559] | 17.48 | –
63 | Cc1cccc2nc(-c3ccc(-c4cccc(CN5CCC(CCN6CCCCC6)CC5)c4)s3)[nH]c12.O=C(O)C(F)(F)F [TCMDC-133923] | 8.35 | –
64 | COc1ccc(CNCc2ccc(F)cc2)cc1-c1ccc(OC)c(S(=O)(=O)NCCN2CCCC2)c1.O=C(O)C(F)(F)F [TCMDC-132295] | 15.91 | –
65 | CN(C)CCN(Cc1ccccc1-c1ccc(CNCCc2ccccc2)cc1)C(=O)c1ccccc1.O=C(O)C(F)(F)F [TCMDC-140532] | 9.67 | –
66 | CCc1nn2c(Nc3ccncc3)cc(C)nc2c1-c1ccccc1 [TCMDC-124917] | 13.13 | –
